Compound potency records, mixed from different reports. Data source: NIAID ChemDB in PubChem.

All rows: tests in culture; organism: Candida albicans; endpoint: MIC

Two numbers with a dash give a range or band. An empty or dashed field is not shown. Lines come from different laboratories, so protocols vary.

| structure | strain or isolate | result |
|---|---|---|
| CC(N1CCN(c2ccc(-n3cnnn3)cc2)C1=O)[C@](O)(Cn1cncn1)c1ccc(F)cc1F | TA | 0.002–0.008 µg/mL |
| CCCCCCCCNC1NCCC2c3ccc(OC)cc3CCN12 | NFI0124 | 32 µg/mL |
| CC(=O)N1CCN(c2ccc(OC[C@H]3CO[C@](Cn4ccnc4)(c4ccc(Cl)cc4Cl)O3)cc2)CC1 | ATCC 10261 | 0.06 µg/mL |
| O=c1c2ccccc2cnn1CCc1nnc(Nc2ccccc2)s1 | ATCC 10231 | 128 µg/mL |
| O=C(N/N=C(\COc1ccc(Cl)cc1)N=Cc1ccncc1)c1ccncc1 | ATCC E10231 | >100 µg/mL |
| COc1cc(/C=C(\C#N)c2nc3ccccc3o2)ccc1O |  | >200 µg/mL |
| CCOC(=O)Nc1ccc2nn(C)nc2c1 | ATCC 10231 | 100 µg/mL |
| CCc1nc(SCC(=O)N/N=C(\C)c2ccc([N+](=O)[O-])cc2)n[nH]1 | ATCC 90028 | 400 µg/mL |
| C=C1CC[C@H](OC(=O)C=C(C)C)C(C)(C)C1CCc1ccc2c(c1)C(=O)C1OC1C2=O |  | >50 µg/mL |
| O=C(N/N=C(\COc1ccc([N+](=O)[O-])cc1)N=Cc1cccnc1)c1ccncc1 | ATCC E10231 | >100 µg/mL |
| Cn1ccc(C(Cc2ccc(Cl)cc2)n2ccnc2)c1 |  | >300 µM |
| O=C(NNC(=S)NC1C2CC3CC(C2)CC1C3)C1C2CC3CC(C2)CC1C3 | IFO 0583 | 4 µg/mL |
| CCc1nc(SCC(=O)N/N=C(\C)c2ccc(O)cc2)n[nH]1 | ATCC 90028 | 200 µg/mL |
| O=C(CCc1ccccc1)Nc1ccc2oc(-c3ccc(F)cc3)nc2c1 | RSKK 628 | 12.5 µg/mL |
| O=c1c2ccccc2cnn1Cc1n[nH]c(=S)n1-c1ccc(Cl)cc1 | ATCC 10231 | 512 µg/mL |
| COc1ccc(N2C(=O)C(OC(C)=O)C2c2ccccc2)cc1 | SH/T54 | 322 µM |
| COc1ccc(Nc2nnc(Cn3ncc4ccccc4c3=O)s2)cc1 | ATCC 10231 | 32 µg/mL |
| Cn1cccc1C(Cc1ccc(N)cc1)n1ccnc1 |  | >300 µM |
| CCc1ccc(-c2nc3cc(NC(=O)CCc4ccccc4)ccc3o2)cc1 | RSKK 628 | 12.5 µg/mL |
| Clc1ccccc1C(c1ccccc1)(c1ccccc1)n1ccnc1 | ATCC 90028 | 0.5 µg/mL |
| Cn1cccc1C(Cc1ccc([N+](=O)[O-])cc1)n1ccnc1 |  | >300 µM |
| N=C(N)Sc1c2ccccc2nc2cccc([N+](=O)[O-])c12 | CNCM 1180-79 | 500 µg/mL |
| O=c1c2ccccc2cnn1Cc1n[nH]c(=S)n1CCc1ccccc1 | ATCC 10231 | 32 µg/mL |
| C=C(CCCCCNC1NCCC2c3ccccc3CCN12)C(C)C | NFI0124 | 32 µg/mL |
| Cc1ccc(-n2c(CCn3ncc4ccccc4c3=O)n[nH]c2=S)cc1 | ATCC 10231 | 512 µg/mL |
| Oc1ccc(/C=C/c2cc(O)cc(O)c2)cc1 |  | 20 µg/mL |
| O=[N+]([O-])c1ccc(-c2nc3ccccn3c2O)cc1 | A | >125 µg/mL |
| CCN(CC)CCn1c2ccccc2c(=O)c2c([N+](=O)[O-])cccc21 | CNCM 1180-79 | 1000 µg/mL |
| Oc1c(-c2ccc(-c3ccccc3)cc2)nc2ccccn12 | A | >125 µg/mL |
| COc1cccc(OC/C(N)=N\NC(=O)c2ccncc2)c1 | ATCC E10231 | >100 µg/mL |
| CCc1nc(SCC(=O)N/N=C(\C)c2ccccc2Cl)n[nH]1 | ATCC 90028 | 200 µg/mL |
| CC(=O)OC1C(=O)N2CCCSC12c1ccccc1 | SH/T54 | 45.12 µM |
| CN(C)c1ccc(-c2nc3cc(NC(=O)OCc4ccccc4)ccc3o2)cc1 | RSKK 628 | 25 µg/mL |
| COc1ccc(-c2nc3ccccn3c2O)cc1 | A | >125 µg/mL |
| CCc1nc(SCC(=O)N/N=C(\C)c2ccc(Cl)cc2)n[nH]1 | ATCC 90028 | 100 µg/mL |
| CCCCCC(=O)O[C@H]1[C@H](OC(=O)CCCCC)[C@H](OCC23C4C=C(C(C)C)C2(C(=O)O)C(C=O)(C4)[C@@H]2CC[C@@H](C)[C@H]23)O[C@H](C)[C@H]1OC | 2402 | 8 µg/mL |
| Cc1ccc(N2C(=O)[C@@H](O)[C@H]2/C=C/c2ccccc2)cc1 | SH/T54 | 44.8 µM |
| CC1(C)S[C@@H]2[C@H](NC(=O)[C@H](N)c3ccccc3)C(=O)N2[C@H]1C(=O)O | ATCC 14053 | >125 µg/mL |
| C[C@@H](N1CCN(c2ccc(-n3cnnn3)cc2)C1=O)[C@](O)(Cn1c[n+](C)cn1)c1ccc(F)cc1F | TA | >16 µg/mL |
| CC(=O)O[C@@H]1C(=O)N(c2ccc(C(=O)O)cc2)[C@H]1c1ccccc1 | SH/T54 | 76.91 µM |
| C/C(=N\NC(=O)CSc1ncn[nH]1)c1ccccc1O | ATCC 90028 | 800 µg/mL |
| CO[C@H]1[C@@H](O)[C@H](O)[C@H](OC[C@@]23C[C@@H]4[C@H](C)CC[C@H]4[C@@]4(C=O)C[C@@H]2C=C(C(C)C)[C@@]34C(=O)O)O[C@@H]1C | 2005E | 8 µg/mL |
| CCO[C@@H]1[C@@H](OCC)[C@H](Cc2ccccc2)O[C@@H]2CO[C@@H](c3ccc(Cl)cc3)O[C@@H]12 | ATCC 24433 | >25 µg/mL |
| O=C(Nc1ccc2oc(-c3ccc(F)cc3)nc2c1)SCc1ccccc1 | RSKK 628 | 25 µg/mL |
| CCCCCCCCCCCOC(=O)c1cc(O)c(O)c(O)c1 |  | >400 µg/mL |
| N/C(COc1cccc(Cl)c1)=N/NC(=O)c1ccncc1 | ATCC E10231 | >100 µg/mL |
| CS(=O)(=O)OC1C(=O)N(c2ccccc2)C1c1ccccc1 | SH/T54 | 18.92 µM |
| COc1ccc(-n2c(CCn3ncc4ccccc4c3=O)n[nH]c2=S)cc1 | ATCC 10231 | 64 µg/mL |
| CCCCCCCCC(O)[C@H]1O[C@H]1C(=O)NC1CC1 | SC5314 | 6.25 µg/mL |
| C=C(CCCCCNC1NCCC2c3ccc(OC)cc3CCN12)C(C)C | NFI0124 | 32 µg/mL |
| Cc1ccc(OC/C(N)=N\NC(=O)c2ccncc2)cc1 | ATCC E10231 | >100 µg/mL |
| Cn1c2ccccc2c(=O)c2c([N+](=O)[O-])ccc(CCN)c21 | CNCM 1180-79 | 50 µg/mL |
| O=C(Nc1ccc2nn(C3CCCCC3)nc2c1)c1ccccc1 | ATCC 10231 | >200 µg/mL |
| CN(C)c1ccc(-c2nc3cc(NC(=O)CCc4ccccc4)ccc3o2)cc1 | RSKK 628 | 25 µg/mL |
| Cn1ccc(C(Cc2ccc(Cl)cc2Cl)n2ccnc2)c1 |  | >300 µM |
| COC1OC(C)(c2ccc(-c3ccccc3)cc2)C(O)CC1N1CCOCC1 |  | >32 µg/mL |
| CC(C)OC(=O)On1cn[n+](C[C@](O)(c2ccc(F)cc2F)[C@@H](C)N2CCN(c3ccc(-n4cnnn4)cc3)C2=O)c1 | TA | 0.25 µg/mL |
| CC(C)=CCCCCCNC1NCCC2c3ccccc3CCN12 | NFI0124 | 32 µg/mL |
| CCCCC/C=C/CCC(=O)[C@H]1O[C@H]1C(=O)N(CC)CC | G2-sensitive | 3.125 µg/mL |
| C[C@@H](N1CCN(c2ccc(-n3cnnn3)cc2)C1=O)[C@](O)(C[n+]1cn(OC(=O)C(C)(C)C)cn1)c1ccc(F)cc1F | TA | 0.5 µg/mL |
| N#CC1=C(N)N2C(=C(C#N)C1c1ccccc1)Oc1ccccc12 |  | >200 µg/mL |
| C[C@@H]1CC[C@@H](O)[C@@](C)(O)[C@@]1(C)CCc1ccc2c(c1)C(=O)C=CC2=O |  | 6 µg/mL |
| COc1ccc(NC(=O)c2ccccc2O)cc1 | ATCC 44859 | >500 µM |
| CC(=O)c1cccc(-c2nc3ncccn3c2O)c1 | A | >125 µg/mL |
| N#CC(=C1CCCC1)c1nc2ccccc2o1 |  | <200 µg/mL |
| Oc1c(-c2ccc(F)cc2)nc2ncccn12 | A | >125 µg/mL |
| Cc1c(O)cccc1C(=O)N[C@@H](CSc1ccccc1)[C@H](O)CN1C[C@H]2CCCC[C@H]2C[C@H]1C(=O)NC(C)(C)C | I62D | 64 µg/mL |
| O=C(Nc1ccc(Cl)cc1)c1ncccc1S | ATCC 44859 | >125 µM |
| Cc1ccc(N/N=C(\C#N)c2nc3ccccc3o2)cc1 |  | <200 µg/mL |
| Cc1ccc(NC(=O)c2ncccc2S)cc1 | ATCC 44859 | 7.81 µM |
| Cn1nc2ccc(NC(=O)c3ccc(Cl)cc3)cc2n1 | ATCC 10231 | 100 µg/mL |
| Cc1cc(=O)n2c(oc3ccccc32)c1C#N |  | >200 µg/mL |
| O=C(Nc1ccc(Cl)c(Cl)c1)c1ncccc1S | ATCC 44859 | >250 µM |
| c1ccc(-c2ccc(C(c3ccccc3)n3ccnc3)cc2)cc1 |  | 1 µg/mL |
| CC(=O)O[C@@H]1C(=O)N(c2ccc(C(=O)O)cc2)[C@H]1c1ccc2c(c1)OCO2 | SH/T54 | 135.5 µM |
| O=c1c2ccccc2cnn1CCc1n[nH]c(=S)n1Cc1ccccc1 | ATCC 10231 | 64 µg/mL |
| COC1OC(C)(c2ccc(-c3ccccc3)cc2)C(=O)CC1N(C)C |  | >32 µg/mL |
| Clc1ccc(CC(c2ccc(Cl)s2)n2ccnc2)c(Cl)c1 |  | 18 µM |
| Cc1ccc(Nc2nnc(CCn3ncc4ccccc4c3=O)s2)cc1 | ATCC 10231 | 128 µg/mL |
| CCSc1c2ccccc2nc2cccc([N+](=O)[O-])c12 | CNCM 1180-79 | 500 µg/mL |
| Oc1c(-c2ccc(F)cc2)nc2ccccn12 | A | >125 µg/mL |
| C=C1C2CC[C@H](C=O)C(O)(C=O)[C@@]2(C)CC[C@@H]1C | B311 | 1.56 µg/mL |
| C/C(=N\NC(=O)CSc1n[nH]c(C)n1)c1ccc([N+](=O)[O-])cc1 | ATCC 90028 | 100 µg/mL |
| COc1ccc(OC/C(N)=N\NC(=O)c2ccncc2)cc1 | ATCC E10231 | >100 µg/mL |
| CCCCCCCCC(=O)[C@H]1O[C@H]1C(=O)N(CC)CC | SC5314 | 12.5 µg/mL |

For reference, 9 entries again:

structure | strain or isolate | result
C[C@@H](N1CCN(c2ccc(-n3cnnn3)cc2)C1=O)[C@](O)(C[n+]1cn(OC(=O)C(C)(C)C)cn1)c1ccc(F)cc1F | TA | 0.5 µg/mL
C=C(CCCCCNC1NCCC2c3ccc(OC)cc3CCN12)C(C)C | NFI0124 | 32 µg/mL
COc1cccc(OC/C(N)=N\NC(=O)c2ccncc2)c1 | ATCC E10231 | >100 µg/mL
N=C(N)Sc1c2ccccc2nc2cccc([N+](=O)[O-])c12 | CNCM 1180-79 | 500 µg/mL
CCc1nc(SCC(=O)N/N=C(\C)c2ccccc2Cl)n[nH]1 | ATCC 90028 | 200 µg/mL
O=[N+]([O-])c1ccc(-c2nc3ccccn3c2O)cc1 | A | >125 µg/mL
C/C(=N\NC(=O)CSc1ncn[nH]1)c1ccccc1O | ATCC 90028 | 800 µg/mL
COc1ccc(Nc2nnc(Cn3ncc4ccccc4c3=O)s2)cc1 | ATCC 10231 | 32 µg/mL
CN(C)c1ccc(-c2nc3cc(NC(=O)CCc4ccccc4)ccc3o2)cc1 | RSKK 628 | 25 µg/mL